Results of unrelated studies side by side (data: NIAID ChemDB).

Shared fields: growth or infection tests; species: Mycobacterium tuberculosis

MIC bound: limit read from a one-dose screen. Two numbers with a dash give a range or band. Conditions beyond the fields shown may differ between rows. Percent inhibition refers to the dose given; in toxicity tests it is the harm to the cells. A number after MIC or MFC names an inhibition level or a share of isolates. ECn is the concentration giving n% inhibition of infection, replication or growth. An empty or dashed field is not shown.

compound	read by	strain or isolate	cell line	setting	read-out	changes	dose	result
COc1cc(C2c3cc4c(cc3C3=NN(c5ccccc5)CC3C2C(=O)O)OCO4)cc(OC)c1OC	BACTEC	H37Rv			inhibition		6.25 µg/mL	0%
CN1CCN(c2cccc3c2C(=O)c2nc4ccccc4c(=O)n2-3)CC1		H37Rv			MIC			>5 µg/mL
COc1ccc(C(=O)/C=C/c2ccc(F)cc2Cl)cc1	MTT	H37Rv		7 d	MIC			32 µg/mL
CC(C)(C)C1CCc2onc(C(=O)Nc3cnn(Cc4ccc(F)cc4F)c3)c2C1		Rv3602c			MIC			>128 µM
O=C(Nc1ccccn1)c1cc(N2CCOCC2)ccn1	resazurin	H37Rv			MIC bound			>6.25 µg/mL
O=C1c2ccccc2C(=O)c2cc(C[P+](c3ccccc3)(c3ccccc3)c3ccccc3)ccc21	resazurin	XZ06008			MIC	Extensively drug-resistant		2 µg/mL
Nc1ccc(S(=O)(=O)c2ccc(N)cc2)cc1		H37Rv			MBC			>40 µg/mL
C=CCCCCn1c2ccccc2c2c(C)c3cnccc3c(C)c21	resazurin	H37Rv			inhibition		6.25 µg/mL	100%
CC1COc2c(N3CCN(C)CC3)c(F)cc3c(=O)c(C(=O)O)cn1c23	broth dilution	12119			MIC80	Ofloxacin-resistant		>5.6 µM
COc1ccc(Cc2noc(NC(=O)c3noc4c3CC(C(C)(C)C)CC4)c2C(N)=O)cc1		Rv3602c			MIC			>128 µM
CC(C)=Nc1c(-c2ccccc2)c2cc(Cl)ccc2[nH]c1=O		H37Rv			inhibition		6.25 µg/mL	0%
C[C@]1(COc2ccc(N3CCC(Oc4ccc(OC(F)(F)F)cc4)CC3)cc2)Cn2cc([N+](=O)[O-])nc2O1		11 strains (EMB-resistant)			MIC90			0.014 µg/mL
O=C1c2cc(Cl)ccc2-n2c1nc1ncccc1c2=O		H37Rv			MBC			4 µg/mL
COc1nc2ccc(Br)cc2cc1[C@@H](c1ccccc1)[C@@](O)(CCN(C)C)c1cccc2ccccc12	broth dilution	ATCC 27294			MIC80			0.2 µM
CC(C)(C)C1CCc2onc(C(=O)Nc3cnn(Cc4ccccc4I)c3)c2C1	resazurin	Rv3602c			MIC			>128 µM
C=CCN(CCNCCC(c1ccccc1)c1ccccc1)C1CCCCC1					MIC			25 µM
COc1ccc(N2CCN(Cc3c(C(C)=O)[n+](=O)c4ccccc4n3[O-])CC2)cc1	BACTEC	H37Rv			EC50			>6.25 µg/mL
Cc1ccc(S(=O)(=O)[O-])cc1.Cc1ccc(S(=O)(=O)[O-])cc1.Cn1c(COc2ccc(/C=N/NC(=O)c3ccc(C(=O)N/N=C/c4ccc(OCc5c[n+]6ccccc6n5C)cc4)cc3)cc2)c[n+]2ccccc12	BACTEC	H37Rv			inhibition		12.5 µg/mL	65%
CCC(C)(C)NCCNCC1(O)CCCCC1					MIC			50 µM
Cn1c(-c2ccc(/C=N/NC(=O)C(=O)N/N=C/c3ccc(-c4c[n+]5ccsc5n4C)cc3)cc2)c[n+]2ccsc12.[Br-].[Br-]	BACTEC	H37Rv			MIC bound			>12.5 µg/mL
C/C(=N\OCCc1nnc(-c2ccc(Cl)cc2)o1)c1ccccc1					inhibition		12.5 µg/mL	7–56%
O=C1c2cc(OC(F)(F)F)ccc2-n2c1nc1ccncc1c2=O		H37Rv			MIC			0.008 µg/mL
CN[C@@H]1[C@H](O[C@H]2[C@H](O[C@H]3[C@H](O)[C@@H](O)[C@H](N=C(N)N)[C@@H](O)[C@@H]3N=C(N)N)O[C@@H](C)[C@]2(O)C=O)O[C@@H](CO)[C@H](O)[C@H]1O	broth dilution	ATCC 27294			MIC80			0.3 µM
Nc1c(-c2ccccc2)c2cc([N+](=O)[O-])ccc2[nH]c1=O		H37Rv			EC50			>6.25 µg/mL
COc1cc(OC)c2cc([N+](=O)[O-])c3ccc(=O)oc3c2c1	resazurin	SIN452			MIC			25 µg/mL
COc1ccc(/C=C2/SC(=O)N(C)C2=O)cc1OC	BACTEC	H37Rv			MIC bound			>12.5 µg/mL
CCOc1ccccc1CNCCNC[C@]1(C)CCC[C@]2(C)c3ccc(C(C)C)cc3CC[C@@H]12					MIC			25 µM
CC#CC#C/C=C1\C=CC2(OC=CC2OC(C)=O)O1	BACTEC	H37Rv			inhibition		12.5 µg/mL	98%
COc1ccccc1CCNCCNCCc1ccccc1Cl					MIC			50 µM
CC1(C)COC(c2ccc3c(c2)C(=O)c2nc4ccncc4c(=O)n2-3)OC1		H37Rv			MIC			0.06 µg/mL
NCC[C@H](O)C(=O)N[C@@H]1C[C@H](N)[C@@H](O[C@H]2O[C@H](CN)[C@@H](O)[C@H](O)[C@H]2O)[C@H](O)[C@H]1O[C@H]1O[C@H](CO)[C@@H](O)[C@H](N)[C@H]1O	broth dilution / resazurin	MDR10			MIC			8 µg/mL
CCOC(=O)c1ccc2c(c1)C(=O)c1nc3c(OC)cccc3c(=O)n1-2		H37Rv			MBC			32 µg/mL
O=C(/C=C/c1c(F)cccc1Cl)c1ccccc1	MTT	H37Rv		7 d	MIC			16 µg/mL
COc1ccccc1CCNCCN(Cc1ccccc1)Cc1ccccc1					MIC			50 µM
Cn1cc(NC(=O)Nc2cc(C(=O)Nc3cc(C(=O)Nc4ccc5c(S(=O)(=O)O)cccc5c4S(=O)(=O)O)n(C)c3)n(C)c2)cc1C(=O)Nc1cc(C(=O)Nc2ccc3c(S(=O)(=O)O)cccc3c2S(=O)(=O)O)n(C)c1	BACTEC	H37Rv			MIC bound			>12.5 µg/mL
Cc1ccc2c(c1)C(=O)c1nc3ccccc3c(=O)n1-2		H37Rv			MIC			5 µg/mL
COc1ccc(C(=O)/C=C/c2ccccc2Cl)c(F)c1	MTT	H37Rv			MIC			32 µg/mL
O=S(=O)(NC1CCN(Cc2ccncc2)CC1)c1ccc(-n2cccn2)cc1					MIC			0.8–3.1 µM
Cc1nc2c(-c3ccccc3)c3cc(Cl)ccc3nc2o1		H37Rv			inhibition		6.25 µg/mL	0%
O=C1c2ccccc2-n2c1nc1ccc(F)cc1c2=O		H37Rv			MIC			0.5 µg/mL
C=CCN(CCNCCc1ccccc1Cl)C1CCCC1					MIC			12.5 µM
CCCCCCCCc1ccc2c(c1)C(=O)c1nc3ccncc3c(=O)n1-2		TN772RFLF:AB (MDR)			MIC			≤0.015 µg/mL
CC(=O)Nc1c(OC(C)=O)nc2ccc(Cl)cc2c1-c1ccccc1		H37Rv			EC50			>6.25 µg/mL
COCN1CCN(COC)C1=O	BACTEC	H37Rv			MIC bound			>12.5 µg/mL
CN(C)CCCN1c2ccccc2Sc2ccc(Cl)cc21		H37Rv			MBC			10–20 µg/mL
CCCCCCCCCCCNCCNN1CCCC1					MIC			50 µM
NC(=O)c1cnccn1		CA516			MIC			>900 µg/mL
CC(=O)c1c(CN2CCN(c3ccc(Cl)cc3)CC2)n([O-])c2cc(Cl)c(Cl)cc2[n+]1=O	BACTEC	H37Rv			inhibition		6.25 µg/mL	0%
COCCN(C1CCN(CC2C=[N+](Cc3ccccc3)c3c(C)cccc32)C1)S(C)(=O)=O					MIC			25 µM
CC(=O)c1c(C)n([O-])c2ccc(Cl)cc2[n+]1=O		H37Rv		inside macrophages	MIC			0.78 µg/mL
C/C(=N\NC(=S)N(C)C)c1ccccn1.[Cu][Br]		KZN494			MIC90			6.25 µM
COc1c2c(c(CCC(=O)O)c3c1C=CC(C)(C)O3)OC(C)(C)C=C2	BACTEC	H37Rv			MIC bound			>12.5 µg/mL
O=C1c2c(Cl)cccc2-n2c1nc1ncccc1c2=O		H37Rv			MIC			0.5 µg/mL
Cc1cccc2c1N=C(c1ccccc1)C2CN1CCC(NS(C)(=O)=O)C1					MIC			1.5 µM
O=C(CNC(=O)C(CCC(=O)OCc1ccccc1)NC(=O)OCc1ccccc1)NCC(=O)NC(CO)C(=O)NCC(=O)Oc1ccc([N+](=O)[O-])cc1	BACTEC	H37Rv			inhibition		12.8 µg/mL	29%
O=C1c2cc(I)ccc2-n2c1nc1c(Br)cc(Br)c(F)c1c2=O		H37Rv			MIC			0.06 µg/mL
CCOC(=O)C(NC(=O)c1ccccc1)(N1CCN(c2cc3c(cc2F)c(=O)c(C(=O)O)cn3CC)CC1)C(F)(F)F		H37Rv	VERO		MIC			6.25 µg/mL
O=C1c2ccccc2-n2c1nc1ncccc1c2=O		H37Rv			MIC			1 µg/mL
COc1ccc(-c2nnc(CON=C(c3ccccc3)c3ccccc3)o2)cc1					inhibition		12.5 µg/mL	7–56%
O=S(=O)(NC1CCN(Cc2ccncc2)CC1)c1ccc(-c2cocn2)cc1					MIC			6.25 µM
C/C(=N\OCc1nnc(Nc2ccccc2)o1)c1ccccc1					inhibition		12.5 µg/mL	7–56%
Nc1ncnc2c1ncn2[C@H]1O[C@@H](CO)[C@H](NC(=S)SCc2ccccc2)[C@@H]1O	resazurin	H37Rv			MIC bound			>6.25 µg/mL
COc1cccc2c1cc1c3c(cc4c(c32)OCO4)C(=O)N1	resazurin	MTY147			MIC			12.5 µg/mL
NC[C@@H]1O[C@H](O[C@H]2[C@@H](O)[C@H](O[C@@H]3[C@@H](O)[C@H](N)C[C@H](N)[C@H]3O[C@H]3O[C@H](CO)[C@@H](O)C[C@H]3N)O[C@@H]2CO)[C@H](N)[C@@H](O)[C@@H]1O[C@H]1O[C@H](CO)[C@@H](O)[C@H](O)[C@@H]1O		Aoyama B (kanamycin-resistant)			EC50			≥50 µg/mL
CC(CNC[C@@H]1CC[C@H]2C[C@@H]1C2(C)C)NCC12CC3CC(CC(C3)C1)C2					MIC			6.25 µM
CC(C)(C)C1CCc2onc(C(=O)Nc3cn[nH]c3)c2C1		Rv3602c			MIC			>128 µM
C/C(=N\OCc1nnc(-c2ccc(N)cc2)o1)c1ccccc1					inhibition		12.5 µg/mL	7–56%
O=C1c2c(Cl)cccc2-n2c1nc1ccccc1c2=O		H37Rv			MIC			1 µg/mL
O=C(/C=C/c1ccc(F)cc1)c1ccc(O)cc1	MTT	H37Rv		7 d	MIC			32 µg/mL
CC(C)(C)C1CCc2onc(C(=O)Nc3cnn(Cc4ccc(Cl)cc4)c3)c2C1	resazurin	Rv3602c			MIC			>128 µM
O=C1OCCC1n1cc(F)c(=O)[nH]c1=O	BACTEC	H37Rv			inhibition		12.5 µg/mL	4%
O=C1c2cc(I)ccc2-n2c1nc1ncccc1c2=O		10038 RFLP:W			MIC			0.06 µg/mL
Cc1ccc(S(=O)(=O)NC(=O)NC(=S)c2ccco2)cc1	resazurin	H37Rv			inhibition		6.25 µg/mL	-23%
O=C(/C=C/c1ccccc1Cl)c1ccccc1	resazurin	H37Rv		21 d	MIC			32 µg/mL
CCCCC(CC)CN1CN(CC(CC)CCCC)CC(C)(NCCNCCF)C1					MIC			12.5 µM
O=C(NCCN1CCCC1)c1cn2c(ccc3sc4ccccc4c(=O)c32)n1	BACTEC	H37Rv			MIC bound			≤12.5 µg/mL
CC(=O)c1c(CBr)n([O-])c2ccccc2[n+]1=O	BACTEC	H37Rv			inhibition		6.25 µg/mL	27%
COc1ccc(C(=O)/C=C/c2ccc(F)cc2)c(F)c1	resazurin	H37Rv		7 d	MIC			32 µg/mL
CC(C)(C)c1ccc(/C=N/NC(=O)c2cccnc2)cc1	BACTEC	H37Rv			inhibition		12.5 µg/mL	27%
c1ccc(C(=NOCCc2nnc(N3CCOCC3)o2)c2ccccc2)cc1					inhibition		12.5 µg/mL	7–56%
CSC(=S)N/N=C(/c1ccccc1)c1ccccn1	BACTEC	H37Rv			MIC bound			≤128 µg/mL
Cc1ccc(C(=O)/C=C/c2ccccc2)c(F)c1	MTT	H37Rv		7 d	MIC			16 µg/mL
Cc1c(C)[n+](=O)c2ccc(/C=N/N3CCOC3=O)cc2n1[O-]	BACTEC	H37Rv			MIC bound			>12.5 µg/mL
Cc1c(C(=O)c2ccccc2)[n+](=O)c2cc(Cl)c(Cl)cc2n1[O-]	BACTEC	H37Rv	VERO		inhibition		6.25 µg/mL	100%
O=C1c2ccccc2-n2c1nc1ccsc1c2=O		H37Rv			MIC			5 µg/mL

Repeating the final 7 entries:

{"compound": "CC(C)(C)c1ccc(/C=N/NC(=O)c2cccnc2)cc1", "read by": "BACTEC", "strain or isolate": "H37Rv", "read-out": "inhibition", "dose": "12.5 µg/mL", "result": "27%"}
{"compound": "c1ccc(C(=NOCCc2nnc(N3CCOCC3)o2)c2ccccc2)cc1", "read-out": "inhibition", "dose": "12.5 µg/mL", "result": "7–56%"}
{"compound": "CSC(=S)N/N=C(/c1ccccc1)c1ccccn1", "read by": "BACTEC", "strain or isolate": "H37Rv", "read-out": "MIC bound", "result": "≤128 µg/mL"}
{"compound": "Cc1ccc(C(=O)/C=C/c2ccccc2)c(F)c1", "read by": "MTT", "strain or isolate": "H37Rv", "setting": "7 d", "read-out": "MIC", "result": "16 µg/mL"}
{"compound": "Cc1c(C)[n+](=O)c2ccc(/C=N/N3CCOC3=O)cc2n1[O-]", "read by": "BACTEC", "strain or isolate": "H37Rv", "read-out": "MIC bound", "result": ">12.5 µg/mL"}
{"compound": "Cc1c(C(=O)c2ccccc2)[n+](=O)c2cc(Cl)c(Cl)cc2n1[O-]", "read by": "BACTEC", "strain or isolate": "H37Rv", "cell line": "VERO", "read-out": "inhibition", "dose": "6.25 µg/mL", "result": "100%"}
{"compound": "O=C1c2ccccc2-n2c1nc1ccsc1c2=O", "strain or isolate": "H37Rv", "read-out": "MIC", "result": "5 µg/mL"}